Results of unrelated studies side by side (data: NIAID ChemDB).

Common to all: whole-cell or culture tests; agent: Mycobacterium tuberculosis

A number after MIC or MFC names an inhibition level or a share of isolates.

SMILES,tested at,method,cell line,changes,read-out,strain or isolate,value
NC(=S)c1cc(SCc2c(F)cccc2Cl)ccn1,,,,,MIC,CNCTC MY331/88,7.94 µM
CCn1cc(C(=O)O)c(=O)c2cc(F)c(N3CCN(C)CC3)cc21,,,,,MIC,H37Ra,2 µg/mL
CC1=C(O)C(C)(Cc2cc(Cl)cc(Cl)c2)SC1=O,,,,,MIC,H37Rv,500 µM
CCC(C)[C@H](C(=O)N[C@@H](CC(C)C)C(=O)N1CC[C@@H]2Oc3ccc(OC)c(c3)/C=C\NC(=O)[C@@H]3CCCN3C(=O)[C@H]21)N(C)C,,,,,MIC,H37Ra,200 µg/mL
CCC(=O)O[C@@H]1C(OC(C)=O)C2=C(C(=O)C(=O)C(C(C)C)=C2O)[C@@]2(C)CCCC(C)(C)[C@H]12,,MTT,,,MIC100,MDR,6.25 µg/mL
O=C1CNC(=O)CN1,12.5 µg/mL,BACTEC,,,inhibition,H37Rv,3%
O=C(NNC(=S)Nc1c(Cl)cccc1Cl)c1ccncc1,,,,,MIC,WT,1.14 µM
CC12CCC(O)CC1CCC1C2CCC2(C)C(c3ccc(=O)oc3)CC3OC312,12.8 µg/mL,BACTEC,,,inhibition,H37Rv,6%
CCOC(=O)Cc1csc(NC(=O)CSC(=S)NNC(=O)c2ccncc2)n1,,,,,MIC,H37Rv,>156 µg/mL
O=C1C(CO)=C[C@@H](O)[C@@H]2O[C@H]12,,BACTEC,,,MIC,H37Rv,≥12.5 µg/mL
CCOc1ccc2c(N/N=C/c3ccc(N(CC)CC)cc3)cc(C)nc2c1,,,VERO,,MIC,H37Rv,12.5 µg/mL
O=C(Nc1cc(Br)ccc1O)c1cncc(Cl)n1,6.25 µg/mL,,,,inhibition,H37Rv,0%
NS(=O)(=O)c1ccccc1C(=O)N/N=C(\c1nc2ccc([N+](=O)[O-])cc2[nH]c1=O)C(O)c1ccc([N+](=O)[O-])cc1,6.25 µg/mL,resazurin,,,inhibition,H37Rv,-5%
NC(=S)c1cc(SCc2ccc(F)cc2)ccn1,,,,,MIC,CNCTC MY331/88,7.94 µM
N#Cc1ccc2c(c1)[n+]([O-])c(C#N)c(N)[n+]2[O-],6.25 µg/mL,,,,inhibition,H37Rv,97%
CC(C)NCCCNC1=C(Cl)C(=O)c2ccccc2C1=O,12.5 µg/mL,BACTEC,,,inhibition,H37Rv,85%
CN(C)c1ccc(NC(=S)NNC(=O)c2ccccc2)cc1,,,,,MIC,INH resistant,4.96 µM
Cc1csc(NC(=O)c2cncc(Cl)n2)n1,6.25 µg/mL,,,,inhibition,H37Rv,21%
Cc1ccc2c(c1)[n+]([O-])c(C#N)c(NC(=O)OC(C)C)[n+]2[O-],6.25 µg/mL,,,,inhibition,H37Rv,100%
CCCCCCCCCCC1(C)SC(=O)C(C)=C1O,,,,,MIC,H37Rv,1000 µM
CCOC(=O)Cc1csc(NC(=O)CSC(=S)N2CCOCC2)n1,,,,,MIC,H37Rv,>156 µg/mL
Cc1cc2c(c(S(=O)(=O)c3ccccc3[N+](=O)[O-])c1)NCCC2,,BACTEC,,,MIC bound,H37Rv,>12.5 µg/mL
CN(CC(=O)NN)c1ccc2ccccc2c1,,,,,EC50,Drug-resistant,2 µg/mL
COC(=O)Nc1c(C#N)[n+]([O-])c2ccccc2[n+]1[O-],6.25 µg/mL,,,,inhibition,H37Rv,98%
COc1ccc2c(NN)cc(C)nc2c1,12.5 µg/mL,,VERO,,inhibition,H37Rv,94%
O=c1[nH][nH]c(=O)c2c1ncn2Cc1ccccc1,,BACTEC,,,MIC bound,H37Rv,>12.5 µg/mL
Cc1ccccc1NC(=S)NNC(=O)c1ccncc1,,,,,MIC,INH resistant,10.88 µM
COc1c(N2CCNC(C)C2)c(F)cc2c(=O)c(C(=O)O)cn(C3CC3)c12,,,,,MIC90,11 strains,0.25 µg/mL
CC(=O)O[C@H]1C2=C(C(=O)C(C(=O)Oc3ccc([N+](=O)[O-])cc3)=C(C(C)C)C2=O)[C@@]2(C)CCCC(C)(C)[C@@H]2[C@@H]1O,,MTT,,,MIC100,H37Rv,>25 µg/mL
CNC1CCCN(c2c(F)cc3c(=O)c(C(=O)O)cn(C4CC4)c3c2OC)C1,,,,,MIC90,100 isolates,2 µg/mL
Cc1ccc2nc(Cl)c(C#N)nc2c1,,,,,MIC,H37Rv,>12.5 µg/mL
CCOC(=O)Cc1csc(NC(=O)CSC(=S)N2CCN(C)CC2)n1,,,,,MIC,H37Rv,>156 µg/mL
CCCCOc1ccc2nc(C)cc(N/N=C/c3ccc(OC)c4ccccc34)c2c1,,,VERO,,MIC,H37Rv,0.78 µg/mL
Cc1cnc(NC(=O)c2cnc(C(C)(C)C)cn2)s1,6.25 µg/mL,,,,inhibition,H37Rv,65%
COc1ccc(-c2nn(-c3ccccc3)cc2C2C3=C(NC(C)(c4cc(O)c(I)cc4Cl)NC3=O)Oc3c2c(C)nn3-c2ccccc2)cc1,,agar diffusion / agar,,,MIC,MTCC 300,100 µg/mL
Clc1ccc(/C=C/c2nc(Cl)c(-c3ccc(Cl)cc3)c(Cl)n2)cc1,6.25 µg/mL,resazurin,,,inhibition,H37Rv,-1%
CCOC(=O)Cc1csc(NC(=O)C(SC(=S)N2CCC(Cc3ccccc3)CC2)c2ccccc2)n1,,,,,MIC,H37Rv,>156 µg/mL
Brc1ccc(-c2nn3cc(C45CC6CC(CC(C6)C4)C5)nc3s2)cc1,,resazurin,,,MIC,H37Rv,20 µM
CCn1cc(C(=O)O)c(=O)c2nc(S(C)=O)sc21,,BACTEC,,,MIC bound,H37Rv,>12.5 µg/mL
Cc1nn(-c2ccccc2)c2c1C(c1cn(-c3ccccc3)nc1-c1ccc(Cl)cc1)C1=C(NC(C)(c3cc(O)ccc3Cl)NC1=O)O2,,agar diffusion / agar,,,MIC,MTCC 300,1000 µg/mL
CCOC(=O)Cc1csc(NC(=O)CSC(=S)N(C)C)n1,,,,,MIC,H37Rv,>156 µg/mL
CCN(CC)CCNC(=O)c1cc(Cl)cc([N+](=O)[O-])c1,,,,,MIC,H37Rv,50 µg/mL
CC(=O)O[C@H]1C2=C(C(=O)C(=O)C(C(C)C)=C2O)[C@@]2(C)CCCC(C)(C)[C@@H]2[C@@H]1O,,MTT,,,MIC100,MDR,3.12 µg/mL
CCC(C)[C@H](C(=O)N[C@@H](CC(C)C)C(=O)N1CC[C@@H]2Oc3ccc(O)c(c3)/C=C\NC(=O)[C@@H]3CCCN3C(=O)[C@H]21)N(C)C,,,,,MIC,H37Ra,>200 µg/mL
COC(=O)c1[nH]c(=O)c(C#N)c(C(=O)OC)c1-c1ccccn1,12.5 µg/mL,BACTEC,,,inhibition,H37Rv,0%
Cc1cccc(CSc2ccnc(C(N)=S)c2)c1,,,,,MIC,CNCTC MY331/88,7.94 µM
c1coc(-c2nn3cc(C45CC6CC(CC(C6)C4)C5)nc3s2)c1,,resazurin,,,MIC,H37Rv,38.2 µM
CC(C)=CCC/C(C)=C/CC/C(C)=C/C1(C)SC(=O)C(C)=C1O,,,,,MIC,H37Rv,>1000 µM
C[C@]1(COc2ccc(N3CCC(Oc4ccc(OC(F)(F)F)cc4)CC3)cc2)Cn2cc([N+](=O)[O-])nc2O1,,visual reading / absorbance,,,MIC100,H37Rv,0.007 µg/mL
CN[C@@H]1[C@H](O[C@H]2[C@H](O[C@H]3[C@H](O)[C@@H](O)[C@H](N=C(N)N)[C@@H](O)[C@@H]3N=C(N)N)O[C@@H](C)[C@]2(O)C=O)O[C@@H](CO)[C@H](O)[C@H]1O,,resazurin,,,MIC,H37Rv,5.3 µM
N#Cc1cc(SCc2ccc(F)cc2)ccn1,,,,,MIC,CNCTC MY331/88,61.66 µM
CCC1Cn2cc([N+](=O)[O-])nc2O1,,,,,MIC,1 isolates ethambutol-resistant,0.08 µg/mL
CCC(=O)OC1=C(C(C)C)C(=O)C2=C(C1=O)[C@@]1(C)CCCC(C)(C)[C@@H]1[C@H](OC(=O)CC)C2OC(C)=O,,MTT,,,MIC100,MDR,6.25 µg/mL
CC(C)=CC[C@H](O)C1=CC(=O)c2c(O)ccc(O)c2C1=O,,,,,MIC,KM-R,6.4 µg/mL
CCOC(=O)Cc1csc(NC(=O)CSC(=S)N2CCCC2)n1,,,,,MIC,H37Rv,>156 µg/mL
COc1ccc(Cc2nn3cc(C45CC6CC(CC(C6)C4)C5)nc3s2)cc1,,resazurin,,,MIC,H37Rv,32.7 µM
Cc1c(NC(=S)NC(=O)c2ccc([N+](=O)[O-])cc2)c(=O)n(-c2ccccc2)n1C,,BACTEC,,,MIC,H37Rv,≥12.5 µg/mL
NC(=S)c1cc(SCc2cccc(Cl)c2)ccn1,,,,,MIC,CNCTC MY331/88,7.94 µM
CN(C)CCCNC(=O)Nc1c(C#N)[n+]([O-])c2cc(Cl)c(Cl)cc2[n+]1[O-],,,,,MIC,H37Rv,<12.5 µg/mL
Oc1cc2ccc1Oc1ccc(cc1)CCc1ccc(cc1)Oc1ccc(cc1O)CC2,,resazurin,,,MIC,H37Rv,20 µg/mL
Cc1ccc(CSc2ccnc(C(N)=S)c2)cc1,,,,,MIC,CNCTC MY331/88,15.85 µM
Cc1nn(-c2ccccc2)c2c1C(c1cn(-c3ccccc3)nc1-c1ccc(F)cc1)C1=C(NC(C)(c3cc(O)c(Cl)c(O)c3)NC1=O)O2,1 mg/mL,agar diffusion / agar,,,zone,MTCC 300,2 mm
COC(=O)c1c(C(=O)OC)c2c(Br)cc3ccccc3n2c1C(=O)c1ccc(C#N)cc1,,resazurin,,,MIC,H37Rv,8 µg/mL
CCOC(=O)OCC1=Nc2cccc3cccc(c23)N1,12.5 µg/mL,BACTEC,,,inhibition,H37Rv,-25%
CCCCCCCCCCCCCCC1(C)SC(=O)C(C)=C1O,,,,,MIC,H37Rv,>1000 µM
NC(=S)c1cc(SCc2ccc(F)c(F)c2)ccn1,,,,,MIC,CNCTC MY331/88,7.94 µM
O=C(NNC(=S)Nc1ccccc1C(F)(F)F)c1ccncc1,,,,,MIC,WT,0.58 µM
CC(CC(=O)NN)Nc1ccc2ccccc2c1,,,,,EC50,Drug-resistant,5 µg/mL
CC[C@@H]1CN2CCc3c([nH]c4ccccc34)C2C[C@H]1/C(=C/OC)C(=O)OC.Cl,12.5 µg/mL,BACTEC,,,inhibition,H37Rv,1%
CC(C)C1=C(O)C2=C(C(=O)C1=O)[C@@]1(C)CCCC(C)(C)C1C[C@H]2O,,MTT,,,MIC100,H37Rv,25 µg/mL
Clc1ccc(/C=N/Nc2ccccn2)c(Cl)c1,12.5 µg/mL,BACTEC,,,inhibition,H37Rv,-16%
CCN(CC)CCNC(=O)c1cc([N+](=O)[O-])cc([N+](=O)[O-])c1,,,,,MIC,N73,5 µg/mL
CC(=O)O[C@H]1C2=C(C(=O)C(=O)C(C(C)C)=C2O)[C@@]2(C)CCCC(C)(C)[C@@H]2[C@@H]1C(=O)Oc1ccc([N+](=O)[O-])cc1,,MTT,,,MIC100,MDR,25 µg/mL
CC(CN1CCN(CCOCCO)CC1)CN1c2ccccc2Sc2ccc(Cl)cc21,,BACTEC,,,MIC bound,H37Rv,≤12.5 µg/mL
O=C(NNC(=S)Nc1ccc(F)cc1)c1ccncc1,,,,,MIC,WT,1.34 µM
N#Cc1cc(SCc2cc([N+](=O)[O-])cc([N+](=O)[O-])c2)ccn1,,,,,MIC,CNCTC MY331/88,15.85 µM
O=[N+]([O-])c1cnc(/C=N/N2CCN(/N=C/c3ncc([N+](=O)[O-])[nH]3)CC2)[nH]1,,resazurin,,,MIC bound,H37Rv,>6.25 µg/mL
CCCCCCCCCCCCCC1(C)SC(=O)C(C)=C1O,,,,,MIC,H37Rv,1000 µM
CC(=O)c1sc2[n+](c1C)C(=O)/C(=C/c1ccccc1Cl)S2,,BACTEC,,,MIC bound,H37Rv,>12.5 µg/mL
FC(F)(F)c1nn2cc(C34CC5CC(CC(C5)C3)C4)nc2s1,,resazurin,,,MIC,H37Rv,12 µM
Cc1c(N2C[C@@H]3CCCN[C@@H]3C2)c(F)cn2c(=O)c(C(=O)O)cc(C3CC3)c12,,,,,MIC,ATCC 25618,0.031 µg/mL
COc1cccc(NC(=O)c2cnc(C(C)(C)C)c(Cl)n2)c1,6.25 µg/mL,,,,inhibition,H37Rv,23%
CC(C)(C)c1ccc(N2CCN(Cc3ccc([N+](=O)[O-])o3)CC2)cc1,,resazurin,,Rifampicin-resistant,MIC,RifR,0.072 µM
O=[N+]([O-])c1ccc(-c2nn3cc(C45CC6CC(CC(C6)C4)C5)nc3s2)cc1,,resazurin,,,MIC,H37Rv,28.7 µM
CCOC(=O)Nc1c(C#N)[n+]([O-])c2ccccc2[n+]1[O-],6.25 µg/mL,,,,inhibition,H37Rv,97%
C=CC1CN2CCC1CC2C(O)c1ccnc2ccc(OC)cc12.CC1C2CCC(C2)C1C(=O)O,6.25 µg/mL,resazurin,,,inhibition,H37Rv,2%
CC(C)(C)c1ncc(C(=O)Nc2ccc(Cl)c(Cl)c2)nc1Cl,6.25 µg/mL,,,,inhibition,H37Rv,0%
NC(=O)c1cc2c(oc1=O)-c1ccccc1OC2,,BACTEC,,,MIC bound,H37Rv,>12.5 µg/mL
CCN(CC)CCNC(=O)c1ccc([N+](=O)[O-])cc1Cl,,,,,MIC,H37Rv,50 µg/mL

Again, the opening 10 rows:

SMILES,tested at,method,cell line,changes,read-out,strain or isolate,value
NC(=S)c1cc(SCc2c(F)cccc2Cl)ccn1,,,,,MIC,CNCTC MY331/88,7.94 µM
CCn1cc(C(=O)O)c(=O)c2cc(F)c(N3CCN(C)CC3)cc21,,,,,MIC,H37Ra,2 µg/mL
CC1=C(O)C(C)(Cc2cc(Cl)cc(Cl)c2)SC1=O,,,,,MIC,H37Rv,500 µM
CCC(C)[C@H](C(=O)N[C@@H](CC(C)C)C(=O)N1CC[C@@H]2Oc3ccc(OC)c(c3)/C=C\NC(=O)[C@@H]3CCCN3C(=O)[C@H]21)N(C)C,,,,,MIC,H37Ra,200 µg/mL
CCC(=O)O[C@@H]1C(OC(C)=O)C2=C(C(=O)C(=O)C(C(C)C)=C2O)[C@@]2(C)CCCC(C)(C)[C@H]12,,MTT,,,MIC100,MDR,6.25 µg/mL
O=C1CNC(=O)CN1,12.5 µg/mL,BACTEC,,,inhibition,H37Rv,3%
O=C(NNC(=S)Nc1c(Cl)cccc1Cl)c1ccncc1,,,,,MIC,WT,1.14 µM
CC12CCC(O)CC1CCC1C2CCC2(C)C(c3ccc(=O)oc3)CC3OC312,12.8 µg/mL,BACTEC,,,inhibition,H37Rv,6%
CCOC(=O)Cc1csc(NC(=O)CSC(=S)NNC(=O)c2ccncc2)n1,,,,,MIC,H37Rv,>156 µg/mL
O=C1C(CO)=C[C@@H](O)[C@@H]2O[C@H]12,,BACTEC,,,MIC,H37Rv,≥12.5 µg/mL

An empty or dashed field is not shown. ECn: concentration that inhibits the pathogen or its effect by n%. Zone: diameter of growth inhibition. Neighbouring rows are from separate reports. Percent inhibition refers to the dose given; in toxicity tests it is the harm to the cells. MIC bound comes from a single tested concentration.